Assay results taken from patent US7087375B1, “Method for determining the mechanism of HIV RT inhibitors” (priority 2000, dated 2006).

How the values were obtained:
[1] = biological target: T1, HIV-1 RT mutant M41L, T69S-SG, L210W, R211K, L214F, T215Y (Human immunodeficiency virus type 1 group M subtype B, UniProt P04585, L797W/L801F/M628L/R798K/T656S/T802Y); type: biochemical; conditions: d4T-TP assay
T1 construct: The final RT products, in a heterodimeric form (p66/p51); made in house

[2] = biological target: T2, HIV-1 RT mutant M41L, T69S-AG, L210W, R211K, L214F, T215Y (Human immunodeficiency virus type 1 group M subtype B, UniProt P04585, L797W/L801F/M628L/R798K/T656S/T802Y); type: biochemical; conditions: d4T-TP assay
T2 construct: The final RT products, in a heterodimeric form (p66/p51); made in house

“bromo-deoxyuridine-triphosphate [BrdUTP]” showed a Km ([1]; ATP 3.2 mM) of 0.184 µM, a Km ([1]; without ATP) of 0.083 µM and a Km ([2]; ATP 3.2 mM) of 0.23 µM. For the same substance, the Km ([2]; without ATP) was 0.13 µM.

Read-outs that look alike come from different tables or passages of the source.
